# Measurements as given in ChEMBL document CHEMBL1275455, “Resistance and virulence of Pseudomonas aeruginosa clinical strains overproducing the MexCD-OprJ efflux pump” (2008).
# Legend:
# Type in all cases: functional
# [1] = test system: Pseudomonas aeruginosa; test: Induction of mexY in Pseudomonas aeruginosa PAO1 clinical isolate harboring nfxB gene at 0.5 times MIC after 4 hrs relative to control
# [2] = test system: Pseudomonas aeruginosa; test: Induction of mexY in Pseudomonas aeruginosa EryR clinical isolate harboring nfxB C199T mutant gene at 0.5 times MIC after 4 hrs relative to control
# [3] = test system: Pseudomonas aeruginosa; test: Induction of mexY in Pseudomonas aeruginosa EryR clinical isolate harboring pNF225 at 0.5 times MIC after 4 hrs relative to control
# [4] = test system: Pseudomonas aeruginosa; test: Induction of mexY in Pseudomonas aeruginosa 3308 clinical isolate harboring nfxB deltaA122-G131 mutant gene at 0.5 times MIC after 4 hrs relative to control
# [5] = test system: Pseudomonas aeruginosa; test: Induction of mexY in Pseudomonas aeruginosa 3308 clinical isolate harboring pNF225 at 0.5 times MIC after 4 hrs relative to control
# [6] = test system: Pseudomonas aeruginosa; test: Induction of mexY in Pseudomonas aeruginosa 2439 clinical isolate harboring nfxB deltaG177-A178 mutant gene at 0.5 times MIC after 4 hrs relative to control
# [7] = test system: Pseudomonas aeruginosa; test: Induction of mexY in Pseudomonas aeruginosa 2439 clinical isolate harboring pNF225 at 0.5 times MIC after 4 hrs relative to control
# [8] = test system: Pseudomonas aeruginosa; test: Induction of mexY in Pseudomonas aeruginosa 2126 clinical isolate harboring nfxB deltaC114-T130 mutant gene at 0.5 times MIC after 4 hrs relative to control
# [9] = test system: Pseudomonas aeruginosa; test: Induction of mexY in Pseudomonas aeruginosa 2126 clinical isolate harboring pNF225 at 0.5 times MIC after 4 hrs relative to control
# [10] = test system: Pseudomonas aeruginosa; test: Induction of mexY in Pseudomonas aeruginosa 1956 clinical isolate harboring nfxB C113T mutant gene at 0.5 times MIC after 4 hrs relative to control
# [11] = test system: Pseudomonas aeruginosa; test: Induction of mexY in Pseudomonas aeruginosa 1956 clinical isolate harboring pNF225 at 0.5 times MIC after 4 hrs relative to control
sequence,measurement,setting,value
GENTAMICIN,fold change (FC),[1],56.2
same,fold change (FC),[2],53.5
same,fold change (FC),[3],65.3
same,fold change (FC),[4],0.2
same,fold change (FC),[5],0.5
same,fold change (FC),[6],20.3
same,fold change (FC),[7],19.3
same,fold change (FC),[8],10.6
same,fold change (FC),[9],16.2
same,fold change (FC),[10],15.5
same,fold change (FC),[11],33.5
